A mixed list of measured activities; the numbers were collected in NIAID ChemDB.

Common to all: tests in culture; agent: HIV-1

Two numbers with a dash give a range or band. ECn is the concentration giving n% inhibition of infection, replication or growth. Neighbouring rows are from separate reports. An empty or dashed field is not shown.

CCN1c2ncc(CCOc3ccc(C(=O)Nc4ccccc4C(=O)O)cc3C)cc2C(=O)N(C)c2cccnc21 ; cell line: C8166 ; read by: p24 ; mutations: RT-K103N Y181C ; read-out: EC50 ; value: >0.05 µM
Clc1cc(CN2CCCNCCNCCCNCC2)cc(Cl)n1 ; cell line: PBMC ; read by: p24 ; strain or isolate: R5 X4 clinical isolate #16 ; read-out: EC50 ; value: 1.8 µM
CC(C)C1=C2C3CCC4[C@@]5(C)CC[C@H](OC(=O)CC(C)(C)C(=O)O)C(C)(C)C5CC[C@@]4(C)[C@]3(C)CC[C@@]2(NC(=O)OC(C)C2CC2)CC1=O ; cell line: MT-2 ; read by: RT activity ; strain or isolate: IIIB ; conditions: 30% human serum ; read-out: EC50 ; value: <0.199 µM
COCCNC(=O)c1c(O)c2ncc(Cc3ccc(F)cc3)c3c2n(c1=O)C[C@H](CNC(C)(C)CO)O3 ; cell line: MT-2 ; read by: ATP / luminescence ; strain or isolate: IIIB ; read-out: EC50 ; value: 0.015 µM
Cc1cc(-c2ccc(C#N)cc2)cc(C)c1Oc1ccnc(S(=O)(=O)CC(=O)Nc2ccc(Br)cc2)n1 ; cell line: MT-4 ; read by: MTT ; mutations: L100I ; strain or isolate: IIIB ; read-out: EC50 ; value: 0.049 µM
Cc1ccc(C(=O)N[C@@]23CC[C@]4(C)[C@H](CC[C@@H]5[C@@]6(C)CC[C@H](OC(=O)CC(C)(C)C(=O)O)C(C)(C)[C@@H]6CC[C@]54C)C2=C(C(C)C)C(=O)C3)cn1 ; cell line: MT-2 ; read by: RT activity ; strain or isolate: IIIB ; conditions: 30% human serum ; read-out: EC50 ; value: <0.199 µM
Cc1cc(-c2ccc(C#N)cc2)cc(C)c1Oc1ccnc(S(=O)(=O)C(C)C(=O)Nc2ccc(Cl)cc2)n1 ; cell line: MT-4 ; read by: MTT ; mutations: K103N ; strain or isolate: IIIB ; read-out: EC50 ; value: 0.035 µM
CC(C)C1=C2[C@H]3CC[C@@H]4[C@@]5(C)CC[C@H](OC(=O)CC(C)(C)C(=O)O)C(C)(C)[C@@H]5CC[C@@]4(C)[C@]3(C)CC[C@@]2(NC(=O)c2ccncc2)CC1=O ; cell line: MT-2 ; read by: RT activity ; strain or isolate: IIIB ; conditions: 30% human serum ; read-out: EC50 ; value: <0.199 µM
Cc1cc(-c2ccc(C#N)cc2)cc(C)c1Oc1ccnc(S(=O)(=O)CC(=O)Nc2ccc(Cl)cc2)n1 ; cell line: MT-4 ; read by: MTT ; strain or isolate: RES056 ; read-out: EC50 ; value: 4.209 µM
CCC(CC)OC(=O)c1cc(NC(=S)c2ccoc2C)ccc1Cl ; cell line: CEM ; read by: syncytia ; mutations: RT-E138K ; read-out: EC50 ; value: 0.437 µM
CC(C)CN(C[C@@H](O)[C@H](Cc1ccccc1)NC(=O)O[C@H]1CO[C@H]2OCC[C@H]21)S(=O)(=O)c1ccc2nc(NC3CCN(C4CCCC4)CC3)sc2c1 ; cell line: MT-4 ; read by: reporter gene ; mutations: V32I L76V V82I ; strain or isolate: T13572 ; read-out: EC50 ; value: 1.5 nM
Cc1cc(/C=C/C#N)cc(C)c1Oc1ccnc(S(=O)(=O)CC(=O)NCCc2ccc(F)cc2)n1 ; cell line: MT-4 ; read by: MTT ; strain or isolate: IIIB ; read-out: EC50 ; value: 0.163 µM
CC1=C(C(=S)Nc2ccc(Cl)c(C=NOC(C)(C)C)c2)CCCO1 ; cell line: CEM ; read by: syncytia ; mutations: RT-L100I ; read-out: EC50 ; value: 0.148 µM
CC(=O)N1CCN(C(=O)N[C@@]23CC[C@]4(C)[C@H](CC[C@@H]5[C@@]6(C)CC[C@H](OC(=O)CC(C)(C)C(=O)O)C(C)(C)[C@@H]6CC[C@]54C)C2=C(C(C)C)C(=O)C3)CC1 ; cell line: MT-2 ; read by: RT activity ; strain or isolate: IIIB ; conditions: 30% human serum ; read-out: EC50 ; value: <0.199 µM
CNC(=O)c1c(O)c2ncc(Cc3ccc(F)cc3)c3c2n(c1=O)C[C@](C)(C(=O)NC(C)(C)CO)O3 ; cell line: MT-2 ; read by: ATP / luminescence ; strain or isolate: IIIB ; read-out: EC50 ; value: 0.0085 µM
CCCc1cc(=O)oc2c3c(c4c(c12)OC(C)(C)CC4)O[C@H](C)[C@@H](C)C3=O ; read by: cytopathic effect / XTT ; mutations: RT-L100I ; read-out: EC50 ; value: >100 µM
Cc1cc(-c2ccc(C#N)cc2)cc(C)c1Oc1ccnc(S(=O)(=O)C(C)C(=O)Nc2ccc(C#N)cc2)n1 ; cell line: MT-4 ; read by: MTT ; mutations: Y188L ; strain or isolate: IIIB ; read-out: EC50 ; value: 0.726 µM
Cc1ncn(CCNC(=O)c2c(O)c3ncc(Cc4ccc(F)cc4)c4c3n(c2=O)CC(F)(F)CN4)c1C ; cell line: MT-2 ; read by: ATP / luminescence ; strain or isolate: IIIB ; read-out: EC50 ; value: 0.015 µM
C#C[C@@]1(CO)C=C[C@H](n2cc(C)c(=O)[nH]c2=O)O1 ; cell line: MT-2 ; read by: recombinant virus assay ; mutations: K65R/Y181C/G190S ; strain or isolate: Clinical isolate ; read-out: EC50 ; value: 0.0646 µM
COc1ccccc1C(=S)Nc1ccc(Cl)c(C(=O)OC(C)C)c1 ; cell line: CEM ; read by: syncytia ; mutations: RT-E138K ; read-out: EC50 ; value: 5.3 µM
CC1CC(C)CN(S(=O)(=O)c2ccccc2[N+](=O)[O-])C1 ; cell line: HeLa ; read by: GFP / fluorescence ; strain or isolate: N119 ; read-out: EC50 ; value: 41.1 µM
CC(C)NC(=O)N[C@@]12CC[C@]3(C)[C@H](CC[C@@H]4[C@@]5(C)CC[C@H](OC(=O)CC(C)(C)C(=O)O)C(C)(C)[C@@H]5CC[C@]43C)C1=C(C(C)C)C(=O)C2 ; cell line: MT-2 ; read by: RT activity ; strain or isolate: IIIB ; conditions: 30% human serum ; read-out: EC50 ; value: <0.199 µM
Cc1occc1C(=S)Nc1ccc(Cl)c(OCC(=O)OC(C)(C)C)c1 ; cell line: CEM ; read by: syncytia ; mutations: RT-L100I ; read-out: EC50 ; value: 1.6 µM
CS(=O)c1ccc(-c2nc(-c3ccc(F)cc3)c(-c3ccncc3)[nH]2)cc1 ; cell line: Mono Mac 6 ; read by: p24 ; strain or isolate: BaL ; read-out: EC50 ; value: >1 µM
[2H]C([2H])([2H])NC(=O)c1c(O)c2ncc(Cc3ccc(F)cc3)c3c2n(c1=O)C[C@H](CN1CCN(S(C)(=O)=O)CC1)O3 ; cell line: MT-2 ; read by: ATP / luminescence ; strain or isolate: IIIB ; read-out: EC50 ; value: 0.0053 µM
CCN1c2ncc(CCOc3ccc(C(=O)N=c4ccccn4O)cc3C)cc2C(=O)Nc2c(C)ccnc21 ; cell line: C8166 ; read by: p24 ; mutations: RT-K103N Y181C ; read-out: EC50 ; value: <0.01 µM
CN1c2ccccc2C2C1C=C(C#N)C(=O)N2c1ccc([N+](=O)[O-])cc1 ; cell line: HeLa ; read by: GFP / fluorescence ; strain or isolate: 6463-13 ; read-out: EC50 ; value: 0.35 µM
CC(C)C1=C2C3CCC4[C@@]5(C)CC[C@H](OC(=O)CC(C)(C)C(=O)O)C(C)(C)C5CC[C@@]4(C)[C@]3(C)CC[C@@]2(NC(=O)OCC2CCN(C)CC2)CC1=O ; cell line: MT-2 ; read by: RT activity ; strain or isolate: IIIB ; conditions: 30% human serum ; read-out: EC50 ; value: <0.199 µM
Cc1cc(-c2ccc(C#N)cc2)cc(C)c1Oc1ccnc(S(=O)(=O)CC(=O)Nc2ccc(F)cc2)n1 ; cell line: MT-4 ; read by: MTT ; strain or isolate: RES056 ; read-out: EC50 ; value: 3.536 µM
CCN1c2ncc(CCOc3ccc(-c4ccc(C(=O)O)s4)cc3)cc2C(=O)N(C)c2cccnc21 ; cell line: C8166 ; read by: p24 ; mutations: RT-K103N Y181C ; read-out: EC50 ; value: 0.01–0.05 µM
O=C(O)c1cc(-n2cccc2)ccc1Cl ; cell line: PBMC + MT-2 ; read by: p24 ; strain or isolate: BCF02 R5 GROUP O ; read-out: EC90 ; value: 54.5 µM
CCC(=O)c1ccc(F)c([C@@H]2C[C@@H]2NC(=O)Nc2ccc(C#N)cn2)c1O ; cell line: TZM-bl ; read by: β-galactosidase / luminescence ; mutations: NNRTI-resistant (RT G190S) ; strain or isolate: LAI ; read-out: EC50 ; value: 0.00009 µM
Cc1cc(-c2ccc(C#N)cc2)cc(C)c1Oc1ccnc(S(=O)(=O)C(C)C(=O)NCc2ccc(Cl)cc2)n1 ; cell line: MT-4 ; read by: MTT ; strain or isolate: IIIB ; read-out: EC50 ; value: >12.18 µM
C[C@H](Cn1cnc2c(N)ncnc21)OCP(=O)(O)O ; cell line: MT-2 ; read by: recombinant virus assay ; mutations: M41L/D67N/K70R/K103N/L210W/T215F/K219Q ; strain or isolate: Clinical isolate ; read-out: EC50 ; value: 0.136 µM
Cc1cc(C#N)cc(C)c1Oc1ccnc(S(=O)(=O)CC(=O)Nc2ccc(C#N)cc2)n1 ; cell line: MT-4 ; read by: MTT ; strain or isolate: IIIB ; read-out: EC50 ; value: 0.002 µM
CCN1c2ncc(CCOc3ccc(NC(=O)c4ccc(C(=O)O)cn4)cc3C)cc2C(=O)N(C)c2cccnc21 ; cell line: C8166 ; read by: p24 ; mutations: RT-K103N Y181C ; read-out: EC50 ; value: >0.05 µM
CC(C)C1=C2C3CCC4[C@@]5(C)CC[C@H](OC(=O)CC(C)(C)C(=O)O)C(C)(C)C5CC[C@@]4(C)[C@]3(C)CC[C@@]2(NC(=O)NC2CCNCC2)CC1=O ; cell line: MT-2 ; read by: RT activity ; strain or isolate: IIIB ; conditions: 30% human serum ; read-out: EC50 ; value: >1 µM
Cc1cc(/C=C/C#N)cc(C)c1Oc1ccnc(S(=O)(=O)CC(=O)NCc2ccc(Cl)cc2)n1 ; cell line: MT-4 ; read by: MTT ; strain or isolate: IIIB ; read-out: EC50 ; value: >1.43 µM

Repeating the final 3 entries:

SMILES,cell line,read by,mutations,strain or isolate,conditions,read-out,value
CCN1c2ncc(CCOc3ccc(NC(=O)c4ccc(C(=O)O)cn4)cc3C)cc2C(=O)N(C)c2cccnc21,C8166,p24,RT-K103N Y181C,,,EC50,>0.05 µM
CC(C)C1=C2C3CCC4[C@@]5(C)CC[C@H](OC(=O)CC(C)(C)C(=O)O)C(C)(C)C5CC[C@@]4(C)[C@]3(C)CC[C@@]2(NC(=O)NC2CCNCC2)CC1=O,MT-2,RT activity,,IIIB,30% human serum,EC50,>1 µM
Cc1cc(/C=C/C#N)cc(C)c1Oc1ccnc(S(=O)(=O)CC(=O)NCc2ccc(Cl)cc2)n1,MT-4,MTT,,IIIB,,EC50,>1.43 µM